# Data from patent US20220356230A1 (published 2022).
# Numbering of substitutions follows the chain as printed. Values joined by “and” are separate entries in the source; they are usually repeats but may differ in a detail not shown here. Equal values may be shown once.
# B1: mAb10920 (antibody, V domains shown)
# VH: QVQLVESGGGVVQPGRSLRLSCAASGFTFSYYGMHWVRQAPGKGLEWVAVIWYDGSNKFYADSVKGRFTISRDNSKNTLYLQMNSLRAEDTAVYYCAAARPGYYYGMDVWGQGTTVTVSS
# VL: DIQMTQSPSSLSASVGDRVTITCRASQGISNYLAWFQQKPGKAPNSLIYAASSLQRGVPSKFSGSGSGTDFTLTISSLQPEDFATYYCQQYNSYPRTFGQGTKVEIKR
# B2: mAb10922 (antibody, V domains shown)
# VH: EVQLVESGGGLVQPGGSLRLSCAASGFTFSIYEMNWVRQAPGKGLEWVSYITSSGTTIYYADSVKGRFTISRDNAKNSLYLQMNSLRAEDTAVYYCASSSSSGYYFDYWGQGTLVTVSS
# VL: not shown
# B3: mAb10922 (antibody, V domains shown)
# VH: B2 VH
# VL: not shown
# B4: mAb10922 (antibody, V domains shown)
# VH: B2 VH
# VL: not shown
# B5: mAb10985 (antibody, V domains shown)
# VH: EVQLVESGGGLVQPGRSLRLSCAASGFTFDDYAMHWVRQAPGKGLEWVSGISWNRGSIGYADSVKGRFTISRDNAKNSLYLQMSSLRAEDTALYYCAKDGERWDSVVVPSARNGMDVWGQGTTVTVSS
# VL: QSVLTQPPSVSGAPGQRVTISCTGSSSNIGAGYDVHWYQQLPGTAPKLLIYGNSNRPSGVPDRFSGSKSGTSASLAITGLQAEDEADYYCQSYDSSLSGSYVFGTGTKVTVLG
# B6: mAb10966 (antibody, V domains shown)
# VH: EVQLVESGGGLVQPGGSLRLSCAASGLTVSSNYMSWVRQAPGKGLEWVSVIYSGGSTFYADSVKGRFTISRDNSKNTLYLQMNSLRPEDTAVYYCAREGRIAATGYGMDVWGQGTTVTVSS
# VL: DIQMTQSPSSLSASVGDRVTITCQASQDISNYLNWYQQKPGKAPKLLIYDASNLGTGVPSRFSGSRSGTDFTFTISSLQPEDIATYYCHQYDNLPQTFGPGTKVDIKR
# B7: mAb10938 (antibody, V domains shown)
# VH: EVQLVESGGGLVQPGGSLRLSCAVSGFTVSSNYMSWVRQAPGKGLEWVSLIYSGGSTFYADSVKGRFTISRHNSKNTLYLQMNSLRAEDTAVYYCAREGGYSYDYNYWGQGTLVTVSS
# VL: B6 VL with S30R, G55E, S65I, R66G, H89Q, Q96I, P100Q, K103R, V104L, D105E
# How the values were obtained:
# [1] = molecular target: T1, VLPs expressing VSV only (negative binding control) (vesicular stomatitis virus); test: MSD electrochemiluminescence, control VLPs on plate, mAb […], expt 3
# [2] = molecular target: T1, VLPs expressing VSV only (negative …); test: MSD electrochemiluminescence, control VLPs on plate, mAb 5.5 nM, expt 3
# [3] = molecular target: T2, SARS-CoV-2-S RBD extracellular domain expressed with a C-terminal myc-myc-hexahistidine tag (SARS-COV-2 … (SARS-CoV-2))
# [4] = molecular target: T2, SARS-CoV-2-S RBD extracellular domain …; test: SPR Biacore T200, 37 C
# [5] = molecular target: Bt-SARS-CoV-2 Spike Protein (RBD)(R319-F541).mFc (SARS-CoV-2); test: Luminex bead assay, antibody supernatant, biotinylated antigen on microspheres
# [6] = molecular target: Bt-SARS-CoV-2 Spike Protein (RBD)(R319-F541).hFc (SARS-CoV-2); test: as above
# [7] = molecular target: T3, SARS-COV-2-S RBD extracellular domain expressed with a C-terminal myc-myc-hexahistidine (SARS-COV-2 RBD-MMH) (SARS-CoV-2); test: SPR Biacore T200, 37 C, ratio of dissociative half-lives at pH 7.4 and pH 5.0
# [8] = molecular target: T3, SARS-COV-2-S RBD extracellular domain …
# [9] = molecular target: SARS-COV-2-S RBD extracellular domain expressed with a C-terminal myc-myc-hexahistidine (SARS-COV-2 RBD-MMH) (SARS-CoV-2); remark: listed apart in the source
# [10] = molecular target: SARS-CoV-2 Spike Protein (RBD)(R319-F541).mFc (SARS-CoV-2); test: Luminex bead assay, antibody supernatant, antigen on microspheres
binder,measurement,setting,value
B1,Antibody Binding Signal (RLU),[1],102 RLU
same,Antibody Binding Signal (RLU),[2],2540 RLU
B2,koff,[3],0.00907 s⁻¹ and 0.00961 s⁻¹
same,t½,[3],1.3 min
same,t½ Ratio pH 7.4/pH 6.0,[4],1.1
B3,Binding signal (MFI),[5],18600 MFI
same,Binding signal (MFI),[6],27900 MFI
B4,t½ Ratio pH 7.4/pH 5.0,[7],0.9
same,koff,[8],0.00907 s⁻¹ and 0.00808 s⁻¹
same,t½,[8],1.3 min and 1.4 min
B5,t½,[9],3.2 min and 3.4 min
B6,t½,[9],7.2 min and 9.2 min
B7,Binding signal (MFI),[6],24600 MFI
same,Binding signal (MFI),[10],30500 MFI
